Anti-infective test results gathered from many reports (values: NIAID ChemDB through PubChem).

Common to all: growth or infection tests; species: HIV-1; measure: EC50

ECn is the concentration giving n% inhibition of infection, replication or growth. An empty or dashed field is not shown. Conditions beyond the fields shown may differ between rows.

SMILES	strain	mutations	cells	read by	conditions	value
O=C(NCc1ccc(F)cc1F)c1cn2ccn(CCCCCCO)c(=O)c2c(O)c1=O		G118R	HEK 293	luciferase		0.0692 µM
CC(C)C1=C2[C@H]3CC[C@@H]4[C@@]5(C)CC[C@H](OC(=O)[C@H]6C[C@@H](C(=O)O)C6(C)C)C(C)(C)[C@@H]5CC[C@@]4(C)[C@]3(C)CC[C@@]2([C@@H](O)CNCc2ccc(O[C@@H]3CCOC3)cc2)CC1=O	92HT599		MT-2	p24 / ELISA		<1 µM
CCOC(=O)/C=C/c1ccc(OC(=O)CCC(=O)Oc2c(C)c(C)c3c(c2C)CC[C@@](C)(CCC[C@H](C)CCC[C@H](C)CCCC(C)C)O3)cc1	BaL		Macrophage + Monocytes/macrophages			~10 µM
Cc1ccc(S(=O)(=O)c2c(C(=O)NNCCO)[nH]c3ccc(Cl)cc23)cc1	BAL R5		Macrophage + Macrophages	p24		11 µM
CCOC(=O)CCCCCNC(=O)Nc1cccc2c(C(=O)C(=O)N3CCC(=C(C#N)c4ccccc4)CC3)c[nH]c12			HeLa	luciferase / reporter gene		<1 µM
Nc1nc2c(ncn2[C@H]2CC[C@@H](CO)O2)c(=O)o1	IIIB		U-937/HIV-1(IIIB) + U-937	RT activity		>100 µg/mL
CCCc1cc(=O)oc2c3c(c4c(c12)OC(C)(C)CC4)O[C@@H](C)[C@H](C)[C@@H]3O	Dihydrocostatolide-resistant (RT-L100I)	RT-L100I	CEM + CEM-SS	XTT		>27 µM
N#CC(=C1CCN(C(=O)C(=O)c2c[nH]c3c(NC(=O)Nc4cc(C(=O)O)cc(C(=O)O)c4)cccc23)CC1)c1ccccc1			HeLa	luciferase / reporter gene		<1 µM
Cc1ccc(S(=O)(=O)c2ccsc2NC(=O)c2ccccc2)cc1	IIIB		CEM + CEM/O	cytopathic effect / MTT		>40 µg/mL
CC(C)C1=C2[C@H]3CC[C@@H]4[C@@]5(C)CC[C@H](OC(=O)[C@H]6C[C@@H](C(=O)O)C6(C)C)C(C)(C)[C@@H]5CC[C@@]4(C)[C@]3(C)CC[C@@]2(CCNCC(CCCN)NC(=O)c2ccc(Cl)cc2)CC1=O	92HT599		MT-2	p24 / ELISA		<1 µM
C[C@@H]1CN(C(=O)c2ccccc2)CCN1C(=O)C(=O)c1c[nH]c2c(NC(=O)Nc3ccc(C#N)cc3)cccc12			HeLa	luciferase / reporter gene		<1 µM
CC(C)C1=C2[C@H]3CC[C@@H]4[C@@]5(C)CC[C@H](OC(=O)[C@H]6C[C@@H](C(=O)O)C6(C)C)C(C)(C)[C@@H]5CC[C@@]4(C)[C@]3(C)CC[C@@]2(CC(=O)NCc2csc(N)n2)CC1=O	92HT599		MT-2	p24 / ELISA		<1 µM
CC(C)=CCC/C(C)=C/Cn1ccn2cc(C(=O)NCc3ccc(F)cc3F)c(=O)c(O)c2c1=O		S230N	HEK 293	luciferase		0.2017 µM
COC[C@@H](c1ccc(C(F)(F)F)cc1)N1CCN(C2(C)CCN(C(=O)c3c(C)ncnc3C)CC2)C[C@@H]1C	R14/S	M518V F519L	TZM-bl			0.001 µM
Cc1ccc(-c2ccc(NC(=O)N3CCC4(CCO4)CC3)cc2)cc1	25710		TZM-bl	luminescence	pseudotyped	>30 µM
C=C(C)[C@@H]1CC[C@]2(C(=O)NCCCCCCCC(=O)N[C@@H](CC(C)C)[C@@H](O)CC(=O)O)CC[C@]3(C)[C@H](CC[C@@H]4[C@@]5(C)CC[C@H](O)C(C)(C)[C@@H]5CC[C@]43C)[C@@H]12	NDK		CEM + CEM-4	cytopathic effect / MTT		>5 µM
CC(C)C1=C2[C@H]3CC[C@@H]4[C@@]5(C)CC[C@H](OC(=O)[C@H]6C[C@@H](C(=O)O)C6(C)C)C(C)(C)[C@@H]5CC[C@@]4(C)[C@]3(C)CC[C@@]2(CCNC(=O)C2CC2)CC1=O	92HT599		MT-2	p24 / ELISA		<1 µM
Nc1ccn([C@H]2S[C@@H](CO)C=C2F)c(=O)n1	BRU-184V		PBMC	PCR		<65.8 µM
COc1ccc(N(C)C(=O)C(Cc2ccccc2)NS(=O)(=O)CS(=O)(=O)N[C@@H](Cc2ccccc2)C(=O)N(C)c2ccc(OC)cc2)cc1	NL4-3		MT-2	luciferase		1.24 µM
O=C(NCc1ccc(F)cc1F)c1cn2ccn(CCCCO)c(=O)c2c(O)c1=O		G118R	HEK 293	luciferase		0.0754 µM
C[C@@H]1CN(C(=O)c2ccccc2)CCN1C(=O)C(=O)c1c[nH]c2c(NC(=O)c3ccccn3)cccc12			HeLa	luciferase / reporter gene		<1 µM
Nc1sccc1S(=O)(=O)c1ccc(Cl)cc1	IIIB		CEM + CEM/O	cytopathic effect / MTT		>20 µg/mL
CC(C)C1=C2[C@H]3CC[C@@H]4[C@@]5(C)CC[C@H](OC(=O)[C@H]6C[C@@H](C(=O)O)C6(C)C)C(C)(C)[C@@H]5CC[C@@]4(C)[C@]3(C)CC[C@@]2(CC(=O)NCC2CCCCC2)CC1=O	92HT599		MT-2	p24 / ELISA		<1 µM
COC(Cn1ccn2cc(C(=O)NCc3ccc(F)cc3F)c(=O)c(O)c2c1=O)OC		G118R	HEK 293	luciferase		0.1031 µM
Nc1nc2c(ncn2[C@@H]2O[C@H](COS(N)(=O)=O)[C@@H](O)[C@H]2O)c(=O)o1	IIIB		U-937/HIV-1(IIIB) + U-937	RT activity		>100 µg/mL
CC(C)C1=C2[C@H]3CC[C@@H]4[C@@]5(C)CC[C@H](OC(=O)[C@H]6C[C@@H](C(=O)O)C6(C)C)C(C)(C)[C@@H]5CC[C@@]4(C)[C@]3(C)CC[C@@]2([C@@H](O)CNC(=O)C(C)(C)NC(=O)c2ccc(N3CCC(O)CC3)cc2)CC1=O	92HT599		MT-2	p24 / ELISA		<1 µM
CN(C(=O)[C@H](Cc1cc(F)cc(F)c1)NC(=O)NS(=O)(=O)N[C@@H](Cc1cc(F)cc(F)c1)C(=O)N(C)c1ccc(C2CC2)nc1)c1ccc(C2CC2)nc1	NL4-3		MT-2	luciferase		0.02 µM
Cc1cc(C)cc(Sc2c(C(=O)NNCCO)[nH]c3ccc(Cl)cc23)c1	BAL R5		Macrophage + Macrophages	p24		0.1 µM
COc1ccc(N(C)C(=O)[C@H](Cc2ccccc2)NC(=O)/C=C/C(=O)N[C@@H](Cc2ccccc2)C(=O)N(C)c2ccc(OC)cc2)cc1	NL4-3		MT-2	luciferase		0.78 µM
COC(=O)c1ccccc1S(=O)(=O)c1ccsc1NC(=O)C(F)(F)F	IIIB		CEM + CEM/O	cytopathic effect / MTT		>20 µg/mL
CN(C(=O)[C@H](Cc1cc(F)cc(F)c1)NC(=O)NS(=O)(=O)N[C@@H](Cc1cc(F)cc(F)c1)C(=O)N(C)c1ccc(OC(F)F)nc1)c1ccc(OC(F)F)nc1	NL4-3		MT-2	luciferase		0.01 µM
N#CC(=C1CCN(C(=O)C(=O)c2c[nH]c3c(NC(=O)Nc4ccc(C(=O)C(F)(F)F)cc4)cccc23)CC1)c1ccccc1			HeLa	luciferase / reporter gene		<1 µM
Cc1cn(-c2ccc(C(=O)NCC[C@@]34CC[C@]5(C)[C@H](CC[C@@H]6[C@@]7(C)CC[C@H](OC(=O)[C@H]8C[C@@H](C(=O)O)C8(C)C)C(C)(C)[C@@H]7CC[C@]65C)C3=C(C(C)C)C(=O)C4)cc2)cn1	92HT599		MT-2	p24 / ELISA		<1 µM
O=C(Nc1sccc1S(=O)(=O)c1ccccc1)c1cccnc1	IIIB		CEM + CEM/O	cytopathic effect / MTT		>1.6 µg/mL
CC(C)C1=C2[C@H]3CC[C@@H]4[C@@]5(C)CC[C@H](OC(=O)[C@H]6C[C@@H](C(=O)O)C6(C)C)C(C)(C)[C@@H]5CC[C@@]4(C)[C@]3(C)CC[C@@]2(CC(=O)NCc2ccc(N3CCS(=O)(=O)CC3)nc2)CC1=O	92HT599		MT-2	p24 / ELISA		<1 µM
COc1ccc(N(C)C(=O)[C@H](Cc2cc(F)cc(F)c2)NC(=O)Cn2c(=O)n(CC(=O)N[C@@H](Cc3cc(F)cc(F)c3)C(=O)N(C)c3ccc(OC)cc3)c3cc(F)ccc32)cc1	NL4-3		MT-2	luciferase		0.03 µM
CC(C)C1=C2[C@H]3CC[C@@H]4[C@@]5(C)CC[C@H](OC(=O)[C@H]6C[C@@H](C(=O)O)C6(C)C)C(C)(C)[C@@H]5CC[C@@]4(C)[C@]3(C)CC[C@@]2([C@@H](O)CNC(=O)[C@H](NC(=O)c2ccc(Cl)cc2)C(C)O)CC1=O	92HT599		MT-2	p24 / ELISA		<1 µM
O=C(Nc1sccc1S(=O)(=O)c1ccc(F)cc1)C(F)(F)F	IIIB		CEM + CEM/O	cytopathic effect / MTT		>1.6 µg/mL
C[C@@H]1CN(C(=O)c2ccccc2)CCN1/C(O)=C(/O)c1c[nH]c2c(NC(=O)Nc3ccc([N+](=O)[O-])cc3)cccc12			HeLa	luciferase / reporter gene		<1 µM
Cc1cn([C@H]2C[C@H](N=[N+]=[N-])[C@@H](CO)O2)c(=O)[nH]c1=O	IIIB		U-937/HIV-1(IIIB) + U-937	RT activity		>30 µg/mL

The last 2 rows once more:

SMILES | strain | mutations | cells | read by | conditions | value
C[C@@H]1CN(C(=O)c2ccccc2)CCN1/C(O)=C(/O)c1c[nH]c2c(NC(=O)Nc3ccc([N+](=O)[O-])cc3)cccc12 |  |  | HeLa | luciferase / reporter gene |  | <1 µM
Cc1cn([C@H]2C[C@H](N=[N+]=[N-])[C@@H](CO)O2)c(=O)[nH]c1=O | IIIB |  | U-937/HIV-1(IIIB) + U-937 | RT activity |  | >30 µg/mL